According to article PMC7279216, “Identification of Inhibitors to Trypanosoma cruzi Sirtuins Based on Compounds Developed to Human Enzymes” (International Journal of Molecular Sciences, 2020):

Legend:
[1] = system: T. cruzi Y H10 strain; experiment: High content assay (HCA), T. cruzi in vitro infection of U2OS cells; format: cell-based, Trypanosoma cruzi
[2] = system: T. cruzi Y H10 strain; experiment: Combinatory high content assay of SIRTi with BZN, T. cruzi in vitro infection; format: cell-based, Trypanosoma cruzi

For `C=CCN1C(=O)/C(=C\c2ccc(-c3ccc(Cl)c(Cl)c3)o2)C(=O)NC1=S` [Compound 32], the “SI (selectivity index = CC50/EC50)” value [1] was 1.93, the “CI (combinatory index) with BZN” value ([2]; Ratio 1, EC50 ratio 1/32 (BZN 0.8 µM)) was 0.19 and the “CI (combinatory index) with BZN” value ([2]; Ratio 2, EC50 ratio 1/16 (BZN 1.5 µM)) was 0.30. For the same molecule, the “CI (combinatory index) with BZN” value ([2]; Ratio 3, EC50 ratio 1/8 (BZN 3 µM)) was 0.82, the “CI (combinatory index) with BZN” value ([2]; Ratio 4, EC50 ratio 1/4 (BZN 6 µM)) was 0.84 and the “CI (combinatory index) with BZN” value ([2]; Ratio 5, EC50 ratio 1/2 (BZN 12 µM)) was 1.56. The “CI (combinatory index) with BZN” value ([2]; Ratio 6, EC50 ratio 1 (BZN 24 µM)) was 1.66 and the “CI (combinatory index) with BZN” value ([2]; Ratio 7, EC50 ratio 2 (BZN 48 µM)) was 1.82.
